From publication PMC10233829 (ACS Omega, 2023)

Tested on: PC3 cells
Experiment: MTT assay, cytotoxic activity
Assay type: cell-based, human
Conditions: HaCaT vs PC3
Procedure: Metastatic prostate cancer (PC3) and human immortal keratinocyte (HaCaT) cell lines were purchased from the American Type Culture Collection (ATCC, Rockville, MD, USA) and cultured in MEM (minimal essential medium, Thermo Sci, USA), RPMI 1640 (Roswell Park Memorial Institute, Biowest SAS, France), and DMEM (Dulbecco’s Modified Eagle’s Medium, Biowest SAS, France). Cells were seeded in 6 mL medium in a tissue culture flask (50 mL) in a 37 °C/5% CO2 humidified incubator. […] MTT analysis was performed according to a previous study.[59] Untreated cells were used as controls. Cell absorbance results were inserted into the formula for the relative MTT level (%). It allows to calculate the viability of cells under the influence of the tested compounds. Cell viability was expressed as the percentage of MTT reduction in cells treated with tested compounds compared to the control sample. The relative MTT level was calculated using the formula [100%] = A/B × 100% where A—the test sample absorbance and B—the control sample absorbance.

SMILES: COc1cccc2c1C(=O)c1c(O)c3c(c(O)c1C2=O)C[C@@](O)(C(=O)CO)C[C@@H]3O[C@H]1C[C@H](N)[C@H](O)[C@H](C)O1 [doxorubicin, reference compound]
- SI (IC50 normal cell line/IC50 cancer cell line): 1.0
